Common to all, as to assay type: cell-based
Series [1] relates to tacaribe virus (TRVL11573 strain).
In series [2] the test system is measles virus (CC strain).
The test system of series [3] is influenza A (H1N1) virus (California/07/2009 strain).
For series [4], the system named is human norovirus genogroup I NoV (Norwalk virus replicon) in HG23 cells. The experiment in a line: Human norovirus antiviral assay, qRT PCR in HG23 NoV replicon cells.
In series [5] the test system is tacaribe virus (TRVL11573 strain). Also noted: unit not given beside the values.
Another series relates to MERS-CoV (EMC strain).
The test system of series [6] is enterovirus-71 (Tainan/4643/98 strain). Also noted: unit not given beside the values.
Series [7] has as its system yellow fever virus (YFV 17D strain).

Several values for one entry are separate records, joined by “and”; a condition that tells them apart may be missing. Equal values may be shown once.

Turning to `OC[C@H]1O[C@@H](n2ccc3c(C#CC4CC4)ncnc32)[C@H](O)[C@@H]1O` [3.1c, 6-Cydopropylethynyl-9-β-D-ribofuranosyl-7-deazapurine], in series [1], the “Tacaribe virus SI50 (CC50/EC50)” value is > 230 and 150. The “Measles SI50 (CC50/EC50)” value in series [2] was over 100. Moreover, the “SI50 (CC50/EC50) influenza A (H1N1)” value in series [3] was >9.1 and >12. For the same molecule, the “SI50 (CC50/EC50) human norovirus” value in series [4] is 139. In series [5], this molecule showed an SI50 tacaribe virus of 86. The “MERS-CoV SI50 (CC50/EC50)” value in the series on MERS-CoV (EMC strain) is >10 and >15. Also, in series [6], the “SI50 enterovirus-71” value is 0. For the same molecule, in series [7], the “Yellow fever virus SI50 (CC50/EC50)” value is 33 and 37.
